Laboratory results taken from patent publication US20180305435A1.

Target: HIV-1 NL4-3 gp120 envelope on the surface of infected T2 cells (HIV-1 NL4-3)
Test: cell-based or functional assay

Substance: CD4ζ chimeric antigen receptor (fusion molecule of human CD4 with the signaling domain of the CD3 complex ζ-chain) (from UniProt P01730 26-396; P20963 52-164)
- Cytolytic activity by chromium release; Tscm transduced with Triple CAR against HIV-1 infected T2 cells, 10:1 ratio, 3.5 hours: 28.2%
